# PSTVd loop 6 mutant pool in Nicotiana benthamiana

Data from the supplement of Wu et al. 2024, doi:10.1371/journal.ppat.1012142.

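Three N. benthamiana plants were inoculated with the whole mutant pool. Progeny were sequenced from the inoculated region (day 5), the margin of the inoculated leaf (day 10) and systemic leaves (day 12).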

The pool varies loop 6 of the PSTVd intermediate strain in the pattern UNNNCGNNNG; wild type is UGACCGCGAG (upper and lower strand joined, each 5' to 3', the first 5 letters being the upper strand, closing pairs included).

Values are reads per thousand in the sample; higher means more abundant, 0 means not found.
Each value is the mean of three plants.
"Pool" is the share in the plasmid pool used as inoculum, on the same scale.
The inoculated region was read from the minus strand, the other sites from the plus strand.

| sequence | pool | inoculated region | leaf margin | systemic leaves |
|---|---|---|---|---|
| GGACCGCGUG | 0.0131 | 0.525 | 0.0816 | 0.0408 |
| UAAACGUUGG | 0.235 | 0.132 | 0 | 0 |
| UAAUCGAGGG | 0.235 | 0.0956 | 0 | 0 |
| UAAUCGUAGG | 0.235 | 0.107 | 0 | 0 |
| UACACGCACU | 0.0131 | 0 | 0 | 0 |
| UACGCGCGGG | 0.209 | 0.149 | 0 | 0 |
| UACUCGCUUG | 0.353 | 0.0813 | 0 | 0 |
| UACUCGGAAG | 0.105 | 0.107 | 0 | 0 |
| UACUCGGCCG | 0.105 | 0.595 | 0.0423 | 0 |
| UACUCUGUCC | 0.0131 | 0 | 0 | 0 |
| UAGUCGUAGG | 0.288 | 0.0654 | 0.00773 | 0 |
| UAGUCGUGAG | 0.248 | 0.101 | 0.00920 | 0.00684 |
| UAUACGACAG | 0.222 | 0.125 | 0.0247 | 0 |
| UAUACGGCUG | 0.248 | 0.617 | 0.143 | 0.0460 |
| UAUACGUAGG | 0.340 | 0.101 | 0 | 0 |
| UAUCCGGUAG | 0.183 | 0.0896 | 0.00773 | 0 |
| UAUCCGUAUG | 0.379 | 0.137 | 0.129 | 0.0137 |
| UAUGCGAUCG | 0.340 | 0.109 | 0.00920 | 0 |
| UAUGCGUCUG | 0.327 | 0.0938 | 0 | 0 |
| UAUUCGCCAG | 0.235 | 0.0779 | 0 | 0 |
| UCAACGCGCG | 0.144 | 0.596 | 0.141 | 0 |
| UCACCGCUUG | 0.144 | 0.136 | 0.0309 | 0 |
| UCAGCGGGUG | 0.327 | 0.0768 | 0.00773 | 0 |
| UCAGCGGUAG | 0.222 | 0.0954 | 0.00773 | 0 |
| UCCCCGUGGG | 0.248 | 0.0538 | 0.00920 | 0 |
| UCCCCGUUUG | 0.445 | 0.0538 | 0 | 0 |
| UCCGCCUAUG | 0.0131 | 0 | 0 | 0 |
| UCCGCGGUGG | 0.340 | 0.0889 | 0.0155 | 0 |
| UCCUCGACGG | 0.196 | 0.0888 | 0 | 0 |
| UCGGCGAAAG | 0.392 | 0.114 | 0 | 0 |
| UCGUCGAGCG | 0.248 | 0.0602 | 0 | 0 |
| UCUCCGGACG | 0.222 | 0.107 | 0.0184 | 0 |
| UGAACGGCCG | 0.131 | 0.162 | 0.0169 | 0 |
| UGACCGCCGG | 0.196 | 0.114 | 0.237 | 0.0717 |
| UGAGCGCUGG | 0.183 | 0.101 | 0.00773 | 0 |
| UGAGCGUACG | 0.222 | 0.0483 | 0 | 0 |
| UGAUCGAUGG | 0.340 | 0.113 | 0.00773 | 0 |
| UGAUCGUAAG | 0.209 | 0.0655 | 0 | 0 |
| UGCCCGUAUG | 0.261 | 0.120 | 0.101 | 0 |
| UGCGCGAUUG | 0.458 | 0.0592 | 0 | 0.00673 |
| UGCGCGGAUG | 0.248 | 0.112 | 0.0252 | 0 |
| UGCUCGAAGG | 0.170 | 0.0833 | 0.00920 | 0 |
| UGGACGUAAG | 0.131 | 0.160 | 0 | 0 |
| UGGGCGCCCG | 0.327 | 0.0769 | 0 | 0 |
| UGGUCGCAAG | 0.170 | 0.144 | 0.00773 | 0 |
| UGGUCGCCAG | 0.157 | 0.0888 | 0 | 0.0205 |
| UGGUCGUCGG | 0.170 | 0.125 | 0.00773 | 0 |
| UGUCCGCUCG | 0.275 | 0.0840 | 0.00773 | 0 |
| UGUGCGCAAG | 0.105 | 0.136 | 0.0155 | 0 |
| UGUUCGAUCG | 0.471 | 0.101 | 0 | 0 |
| UUAACGAAAG | 0.222 | 0.652 | 0.0830 | 0 |
| UUAACGGUCG | 0.301 | 0.564 | 0.0991 | 0.0263 |
| UUACCGCCCG | 0.170 | 0.143 | 0.0169 | 0 |
| UUAGCGGACG | 0.261 | 0.617 | 0.0759 | 0.0398 |
| UUCAAGAUCG | 0.0131 | 0 | 0 | 0 |
| UUCGCGUCGG | 0.418 | 0.0909 | 0.00773 | 0.00684 |
| UUCUCGAUAG | 0.431 | 0.160 | 0.0851 | 0 |
| UUGACGGAAG | 0.118 | 0.126 | 0 | 0 |
| UUGACGGGUG | 0.261 | 0.0892 | 0 | 0 |
| UUGACGUAUG | 0.275 | 0.113 | 0.172 | 0 |
| UUGCCGUACG | 0.275 | 0.0878 | 0 | 0 |
| UUGGCGUCAG | 0.392 | 0.100 | 0 | 0 |
| UUGGCGUGGG | 0.301 | 0.0845 | 0 | 0 |
| UUUCCGCUAG | 0.144 | 0.113 | 0.0309 | 0 |

Sequences that differ at fixed positions probably stem from PCR or sequencing errors, and defective variants can be carried along by functional ones.
With 36,220-57,551 reads a sample, very low values are single reads.
Wild type was 20.7 per thousand in the pool and the most common sequence in every sample (inoculated region 195, 198, 203; leaf margin 629, 591, 734; systemic leaves 942, 870, 868).